Drawing on publication PMC4383067, “Interaction of prion protein with acetylcholinesterase: potential pathobiological implications in prion diseases” (2015), this text covers fraction of protein complexes with Hup8TH (AChE:Hup8TH 1:20) for one substance.

The target in this assay is the truncated fibrils.

Several values for one entry are separate records, joined by “and”; a condition that tells them apart may be missing. Equal values may be shown once.

On to “Full-length human acetylcholinesterase (dimeric, recombinant) (from UniProt P22303 32-614)”, for which the fraction of protein complexes with Hup8TH (AChE:Hup8TH 1:20) is 40% and 20%.
